Measured values from several laboratories, pooled; numbers as filed in NIAID ChemDB.

All rows: target-level tests

Blank or dashed fields: not listed here.

CC(=O)NC(CC(C)C)C1NC(C(=O)[O-])CC1N ; organism: Influenza A virus ; strain or isolate: A/TOKYO/67 ; protein: Neuraminidase ; endpoint: Ki ; value: 6.2 µM
COc1ccc([C@H](NC(=O)c2ccc3c(c2)nc(-c2ccoc2)n3C2CCCCC2)C(=O)O)cc1OC ; organism: Poliovirus ; strain or isolate: POLIO VIRUS ; protein: RNA-dependent RNA polymerase ; endpoint: IC50 ; value: 100 µM
CCCCCCCCCCCCCCCCCC(=O)OC[C@@H](COP(=O)(O)OCCNCCO[C@@]1(C(=O)O)O[C@@H]([C@H](O)[C@H](O)CO)[C@H](NC(C)=O)[C@@H](O)[C@H]1F)OC(=O)CCCCCCCCCCCCCCCCC ; organism: Influenza A virus ; strain or isolate: H9N2 A/DUCK/86/1/76 ; protein: Sialidase ; endpoint: IC50 ; value: 180 µM
O=C(O)COc1ccccc1CN1CCC(CNC(=O)c2ccc3c(c2)nc(-c2ccoc2)n3C2CCCCC2)CC1 ; organism: Poliovirus ; protein: RNA-dependent RNA polymerase ; endpoint: IC50 ; value: >25 µM
Nc1nc(=O)c2ncn(COCCO)c2c(=O)[nH]1 ; organism: Japanese encephalitis virus ; protein: NTPase/helicase ; endpoint: IC50 ; value: >500 µM
CCCCCCCCCCCCC/C=C/[C@@H](O)[C@H](CO[C@@H]1O[C@H](CO)[C@H](O)[C@H](OS(=O)(=O)O)[C@H]1O)NC(=O)CCCCCCCCCCCCCCCCCCCCCCC ; organism: Influenza A virus ; strain or isolate: H11N9 A/mallard/Alberta/24/92 ; dose: 200 µM ; protein: Sialidase ; endpoint: inhibition ; value: 58.1%
O=C(N[C@H](Cc1ccc(O)cc1)C(=O)O)c1ccc2c(c1)nc(-c1ccoc1)n2C1CCCCC1 ; organism: Poliovirus ; protein: RNA-dependent RNA polymerase ; endpoint: IC50 ; value: >25 µM
CCN(C(=O)N1C[C@@H](C(=O)O)[C@@H](N)[C@H]1CNC(C)=O)C(C)C ; organism: Influenza A virus ; strain or isolate: A/TOKYO/67 ; protein: Neuraminidase ; endpoint: Ki ; value: 69 µM
O=C(O)COc1ccc(CC[C@H](NC(=O)c2ccc3c(c2)nc(-c2ccoc2)n3C2CCCCC2)C(=O)O)cc1 ; organism: Poliovirus ; protein: RNA-dependent RNA polymerase ; endpoint: IC50 ; value: >25 µM
CCN(C(=O)N1C[C@H](O)[C@](O)(C(=O)O)C1)C(C)C ; organism: Influenza A virus ; strain or isolate: TOKYO/3/67 ; protein: Neuraminidase ; endpoint: Ki ; value: 940 µM
CCCCCCCCCCCCCCCCCC(=O)OC[C@@H](COP(=O)(O)OCCNCCO[C@@]1(C(=O)O)O[C@@H]([C@H](O)[C@H](O)CO)[C@H](NC(C)=O)[C@@H](O)[C@H]1F)OC(=O)CCCCCCCCCCCCCCCCC ; organism: Influenza A virus ; strain or isolate: H2N2 A/DUCK/HK/273/78 ; protein: Sialidase ; endpoint: IC50 ; value: 150 µM
Cc1ccc(-c2nc3cc(C(=O)O)ccc3n2C2CCCCC2)s1 ; organism: Poliovirus ; protein: RNA-dependent RNA polymerase ; endpoint: IC50 ; value: >25 µM
CC(C)N(CCCO)C(=O)N1CC(N)C(C(=O)O)C1 ; organism: Influenza A virus ; strain or isolate: A/TOKYO/67 ; protein: Neuraminidase ; endpoint: IC50 ; value: 2.1 µM
CC(C)N(C(=O)N1C[C@H](C(=O)O)[C@H](NCc2ccccc2)C1)C(C)C ; organism: Influenza A virus ; strain or isolate: A/TOKYO ; protein: Neuraminidase ; endpoint: IC50 ; value: >50 µM
O=C(N[C@@H](Cc1cc2cc(O)ccc2[nH]1)C(=O)O)c1ccc2c(c1)nc(-c1ccoc1)n2C1CCCCC1 ; organism: Poliovirus ; strain or isolate: POLIO VIRUS ; protein: RNA-dependent RNA polymerase ; endpoint: IC50 ; value: >120 µM
O=C(N[C@@H](Cc1ccc(O)cc1)c1ccccc1)c1ccc2c(c1)nc(-c1ccoc1)n2C1CCCCC1 ; organism: Poliovirus ; protein: RNA-dependent RNA polymerase ; endpoint: IC50 ; value: >25 µM
CCC(CC)CC(NC(C)=O)C1NC(C(=O)O)CC1C(=O)OC ; organism: Influenza A virus ; strain or isolate: A/TOKYO/67 ; protein: Neuraminidase ; endpoint: Ki ; value: 0.0008 µM
CC(C)N(C(=O)N1C[C@H](C(=O)O)[C@H](NC(=O)N(C)C)C1)C(C)C ; organism: Influenza A virus ; strain or isolate: A/TOKYO ; protein: Neuraminidase ; endpoint: IC50 ; value: >50 µM
COC(=O)C(NC(=O)c1ccc2c(c1)nc(-c1ccoc1)n2C1CCCCC1)c1ccc(OC)c(OC)c1 ; organism: Poliovirus ; protein: RNA-dependent RNA polymerase ; endpoint: IC50 ; value: >25 µM
CC(C)(C)OC(=O)N1C[C@H](N)[C@H](C(=O)O)C1 ; organism: Influenza A virus ; strain or isolate: TOKYO/3/67 ; protein: Neuraminidase ; endpoint: Ki ; value: 59 µM
Cc1cnc(-c2nc3cc(C(=O)N[C@H](C(=O)O)c4c[nH]c5ccc(O)cc45)ccc3n2C2CCCCC2)cn1 ; organism: Poliovirus ; protein: RNA-dependent RNA polymerase ; endpoint: IC50 ; value: >25 µM
CCN(C(=O)N1C[C@H](C(=O)O)[C@H](N)[C@@H]1CNC(C)=O)C(C)C ; organism: Influenza A virus ; strain or isolate: A/TOKYO/67 ; protein: Neuraminidase ; endpoint: Ki ; value: 4.4 µM
CCOC(=O)c1cccc(NC(=O)N2CCC(NC(=O)c3ccc4c(c3)nc(-c3ccoc3)n4C3CCCCC3)C2)c1 ; organism: Poliovirus ; protein: RNA-dependent RNA polymerase ; endpoint: IC50 ; value: >25 µM
COC(=O)C1CC(C(=O)O)NC1CNC(C)=O ; organism: Influenza A virus ; strain or isolate: A/TOKYO/67 ; protein: Neuraminidase ; endpoint: Ki ; value: 0.9 µM

For reference, 2 entries again:

smiles,organism,strain or isolate,dose,protein,endpoint,value
Cc1cnc(-c2nc3cc(C(=O)N[C@H](C(=O)O)c4c[nH]c5ccc(O)cc45)ccc3n2C2CCCCC2)cn1,Poliovirus,,,RNA-dependent RNA polymerase,IC50,>25 µM
CC(C)N(C(=O)N1C[C@H](C(=O)O)[C@H](NC(=O)N(C)C)C1)C(C)C,Influenza A virus,A/TOKYO,,Neuraminidase,IC50,>50 µM

Lines come from different laboratories, so protocols vary. ICn is the concentration giving n% inhibition. Inhibition is in % at the dose shown (toxicity tests: loss of growth or viability).